Source: ChEMBL document CHEMBL3988442, “University of Dundee, Small-Polar-MMV Screening Library” (2021).

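Phenotypic screen: M. tuberculosis growth, glucose 7H9 medium, 3 days; the read-out is not stated. Compounds at 50 µM. Direction is inferred from retests: higher values go with more growth inhibition. About 69,000 compounds were tested under these conditions; 1.1% (about 760) showed 50% or more at least once.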

Values are the deposited “Percent Effect”, in %. How 0% and 100% were set is not recorded. Most values in the screen are low, and negative values occur. Many other results are left out here, so strong results are more common than in the screen. Two or more numbers in one place are separate tests of the same structure; such repeats can differ widely.

| compound | Percent Effect |
|---|---|
| `Cc1cc(Cc2ccccc2C)cc(C2CCCNC2)n1` (stereo not drawn) | 9.32 |
| `O=C(O)C(F)(F)F.[H][C@@]12CCN(Cc3ccco3)CC[C@]1([H])[C@H](COCC1CC1)CN(C)C2=O` | 0.9186 and -1.107 |
| `COC(=O)CCC(=O)N1CCC2(CN(Cc3ccccc3)C2)C1` | -40.34 |
| `OCC(O)CSCc1nnc(-c2cccc(F)c2)o1` (stereo not drawn) | -1.053 |
| `Cc1ccc(S(=O)(=O)NCC(C)(C)N)c(F)c1.Cl` | 6.354 |
| `CCCN(CCC)C(=O)Cn1c(SC)nc2ccsc2c1=O` | -2.918 |
| `O=C(c1cnc(O)cc1O)N1CCCC(CCc2ccccc2F)C1` (stereo not drawn) | -29.26 and -3.562 |
| `CCc1nnc2n1CCN(C(=O)CN(C)C1CC1)C2` | -29.05 |
| `CCS(=O)(=O)N1CCC2(CCCN(Cc3ccc(F)c(F)c3)C2=O)C1` (stereo not drawn) | -6.111 |
| `CSc1nc2ccsc2c(=O)n1CC(=O)N(C)C1CCCCC1` | 54.41 |
| `CC(C)c1cc(N(C)Cc2cc(C3CC3)on2)n2nccc2n1` | 28.54 |
| `Cc1nc2c(Nc3ccc(C#N)cc3)nc(N)nc2n1C` | -5.087 |
| `CCn1ncc2c1C(COC)CN(c1ncc(F)cn1)C2.O=C(O)C(F)(F)F.O=C(O)C(F)(F)F` (stereo not drawn) | -9.96 |
| `O=C(NCc1ccccn1)N1CC=C(c2ccccc2)CC1` | 16.27 |
| `CC(C)C[C@H](N)COc1cccc(F)c1Oc1ccc(Cl)cc1` | 70.56 |
| `CN(C)CC1(O)CCN(S(=O)(=O)c2ccc(Cl)cc2)C1` (stereo not drawn) | -4.569 |
| `Cc1ccc(N2CCC3(CC2)CNC(=O)CO3)nn1.O=C(O)C(F)(F)F` | 17.16 |
| `CCn1nnc(NCc2ccccc2OCc2ccc(Cl)cc2)n1` | 50.8 |
| `COc1ccc(OC)c(-c2nc(CN(C)Cc3nncn3C)c(C)o2)c1` | -7.102 and -40.07 |
| `Cc1ccc(Oc2cc(F)ccc2O[C@@H]2CCC[C@@H](N)[C@H]2O)cc1` | 70.98 |
| `Cc1cc(C)n(C2=NC(NCCC(C)C)c3c(sc4c3CCCC4)N2)n1` (stereo not drawn) | 4.242 |
| `COc1ccc(OC)c(CNc2nnc(C(C)(C)C)o2)c1` | 6.882 |
| `c1ccc(-c2cc(CN3CCCC(Cn4cncn4)C3)on2)cc1` (stereo not drawn) | 36.53 |
| `CN(Cc1nnc(C2CC2)o1)Cc1ccccc1N1CCOCC1` | 45.83 and 31.81 |
| `CC(C)Cc1nnc(NCc2ccsc2)o1` | 56.99 |
| `COc1cccc(Cc2nnc(SC3CCOC3=O)o2)c1` (stereo not drawn) | -16.53 |
| `CC(C)c1nccn1C(C)C(=O)N1CCN(c2cnccn2)CC1` (stereo not drawn) | 111.3 and -7.649 |
| `COc1ccccc1N1CCC(CNCc2cccc(O)c2)C1` (stereo not drawn) | 35.5 |
| `CCNc1nnc(SCc2nnc(C(C)(C)C)o2)s1` | -34.93 |
| `COC(=O)c1ccc(N2CCN(C(=O)CC(F)(F)F)C(C)C2)cc1` (stereo not drawn) | -12.91 |
| `Clc1cc(NCc2ncc[nH]2)nc2[nH]ccc12` | 57.57 |
| `O=C(CCn1cccn1)NCCOc1cccc(Cl)c1` | -5.477 |
| `Cl.Cl.Clc1cccc(C[C@@H]2NCCC[C@@H]2Nc2cccc(Cl)c2)c1` | 118.1 |
| `Fc1cccc(-c2nnn3c2COC(CNCc2ccsc2)C3)c1.O=C(O)C(F)(F)F` (stereo not drawn) | 4.898 and 23.91 |
| `O=C(O)C(F)(F)F.[H][C@@]12C[C@@H](c3nc(C)cs3)O[C@]1([H])CN(c1ncc(F)cn1)C2` | 15.44 |
| `CC(NC(=O)c1cc(-c2cccc(Cl)c2)no1)C(=O)N(C)C` (stereo not drawn) | 3.798 |
| `Cn1cc(-c2cnc(-c3ccnn3C)nc2)cc1C(=O)NC1CC1` | 26.28 |
| `CN(CCc1ccncc1)Cc1nccn1Cc1ccccc1` | -12.02 |
| `CCCNC(=O)Cn1cc(-c2ccccc2)cn1` | -5.026 |
| `COc1ccc(C(O)CNC(=O)NCc2nc(C)cs2)cc1` (stereo not drawn) | -17.59 and -5.876 |
| `CCCn1c(O)nnc1SCC1OCCc2ccccc21` (stereo not drawn) | -8.566 |
| `CCC(=O)Nc1ccc(F)c(S(=O)(=O)NC(C)(C)C)c1` | -48.39 |
| `Cc1cnn(CCNCC(O)c2ccc3c(c2)OCCO3)c1` (stereo not drawn) | -34.93 |
| `CN(C)c1nccc(CNC(=O)NC(C)(C)C)n1` | 13.06 |
| `Cc1ccc2nnc(C(=O)NCCCn3cccn3)nc2c1` | 54.36 |
| `CCc1c(C(=O)NCC(=O)OCC2CC2)cnn1-c1ccc(C)cc1` | 71.1 |
| `Cc1cc2c(cc1NC(=O)NCC(C)C)OCO2` | -22.19 and -1.959 |
| `CSCc1ccc(C(=O)NCCCNc2ccc(C(F)(F)F)cn2)cc1` | 70.86 |
| `CC[C@H](C)[C@@H](CO)NC(C)Cc1ccc(C)cc1` (stereo partly drawn) | 57.37 |
| `CC(O)c1cccc(Nc2nc(NCCO)c3ccccc3n2)c1` (stereo not drawn) | 18.77 |
| `CCc1nc2c(NCC3COc4cc(OC)ccc4C3)ncnc2o1` (stereo not drawn) | -7.146 |
| `c1ccc(-c2noc(CN3CCC(c4ccn[nH]4)CC3)n2)cc1` | 13.62 |
| `CCOC(=O)NC(CNC(=O)c1cccnc1SC)CC(C)C` (stereo not drawn) | -14.07 and 0.1416 |
| `COCCCSc1ccc(NCc2ccc(C)cn2)cc1` | 35.96 and 44.38 |
| `CCC(NS(=O)(=O)N1CCOCC1)c1ccccc1OC` (stereo not drawn) | -9.334 and -1.575 |
| `O=C(NCC(=O)N1CCc2ccccc2C1)c1cnccn1` | -1.805 and 75.85 |
| `Cc1ccc(S(=O)(=O)N2C[C@H](C3CC3)[C@@H](N)C2)cc1F` | 14.98 |
| `O=C(NC1CC1)C1CCCN(c2cccc(C(F)(F)F)n2)C1` (stereo not drawn) | 45.74 |
| `O=C(O)C(F)(F)F.[H][C@@]12C[C@@H](c3nc(C4CC4)cs3)O[C@]1([H])CN(C(=O)C1CCOCC1)C2` | -9.981 |
| `COc1ccc(CN(C(=O)C2CCCO2)c2ccncc2)cc1` (stereo not drawn) | -11.46 and 5.672 |
| `Cc1cccc(OCC(O)CNCc2c(C)nn(C)c2N(C)C)c1` (stereo not drawn) | -8.119 |
| `Cc1cc(C2CCC2)nc(N(C)Cc2cnccn2)n1` | 21.75 |
| `CCc1nnc(CN(C)c2cc(C)nc3c(C)c(C)nn23)o1` | 19.01 and 7.167 |
| `COc1ncccc1C(=O)NC1CCOc2ccccc21` (stereo not drawn) | -6.081 |
| `CN(CCS(=O)(=O)c1cc(Cl)ccc1Cl)CC(N)=O` | 42.16 and 45.21 |
| `COC(=O)C1CCN(C(=O)c2cccc(NS(C)(=O)=O)c2C)CC1` | -11.67 |
| `Cc1ccc(CNCC2Cn3nnc(-c4cnn(C)c4)c3CO2)o1` (stereo not drawn) | -46.43 |
| `CCc1cnc(N2CCN(Cc3ccno3)CC2)s1` | 15.37 |
| `CN1CCC(N(C)CCC(=O)N2CCC(Oc3ccc(Cl)cc3)CC2)C1` (stereo not drawn) | 43.27 |
| `COC(=O)CCC(=O)NC(C)Cc1ccccc1Br` (stereo not drawn) | 44.06 |
| `Cl.O=C(CCC1CCCC1)N1CCCC(c2ncc3c(n2)CCNC3)C1` (stereo not drawn) | 53.33 |
| `CCCc1cc(C(=O)NC(C)c2ccccc2)n(C)n1` (stereo not drawn) | -25.96 |
| `Cc1nnc(CSc2n[nH]c(-c3ccccn3)n2)o1` | -55.35 and -3.299 |
| `c1ccc(CN2CCN(c3ccc4nncn4n3)CC2)nc1` | 27.9 |
| `Cc1cc(C)n(CC2CCCN2CC(=O)Nc2nncs2)n1` (stereo not drawn) | -15.35 |
| `NCCC1CN(c2nc(-c3ccccc3)nc3c2CCNC3)CCO1` (stereo not drawn) | 29.38 |
| `C=C/C=c1\c(=C/C)oc2c(NCc3ccccc3)ncnc12` | 32.53 |
| `Cc1ccc(NC2CCCN(CCc3ccccc3)C2)nn1` (stereo not drawn) | -31.9 |
| `CN1CCN(CC(CC(=O)Nc2ccc(Cl)cc2)C(=O)O)CC1` (stereo not drawn) | 24 and 5.636 |
| `CCCSCC(=O)N1CCN(c2ccc(C)cc2)CC1C` (stereo not drawn) | 28.73 and 12.72 |
| `Cc1nc(CN(C)C2CCN(CCC(=O)N3CCOCC3)C2)no1` (stereo not drawn) | 1.912 |
| `CCCNS(=O)(=O)Cc1ccc(Br)cc1` | 16.76 |
| `COc1ccc(NC(=O)NC(C)(C)c2noc(C)n2)cc1` | -19.04 and 0.3578 |
| `CCOC(=O)CNC(=O)N1CCOC(CCc2ccccc2)C1` (stereo not drawn) | -13.37 |
| `Cc1sc(Br)cc1S(=O)(=O)NCCN.Cl` | 54.13 |
| `O=C(O)CC(O)(CC(=O)O)C(=O)O.[H][C@@]12CC[C@@](O)(c3ccc(C)cn3)[C@]1([H])CN(Cc1cccc(Cl)c1Cl)C2` | 50.17 |
| `Cc1cccc(CN(Cc2ccccn2)Cc2ncc(C(C)(C)C)o2)c1` | 15.56 and 20.65 |
| `O=C(NCC(O)c1cccs1)c1ccco1` (stereo not drawn) | 23.6 |
| `Cc1csc(N2CCN(C(=O)CCC(=O)c3ccc(C)s3)CC2)n1` | 35.79 |
| `COc1cccc(OC)c1-c1ccnc2cc(CC(=O)NC3CC3)nn12` | 33.22 |
| `CCc1cc(C(=O)N2CCC(c3cc4ncccc4cn3)CC2)on1` | 0.4906 |
| `COc1ccc(-c2cn(CCSc3ncn[nH]3)nn2)cn1` | 11.13 |
| `O=C(CC1CCc2ccccc21)NCCSc1ccccn1` (stereo not drawn) | -20.36 |
| `Cl.OC(CNCc1ccccc1C(F)(F)F)c1ccccc1` (stereo not drawn) | -22.64 |
| `c1cc(N2CCOCC(Cc3ccc4[nH]ccc4c3)C2)ncn1` (stereo not drawn) | 4.125 |